{"source": "patent US9605014B2", "about": "“Glycomimetics to inhibit pathogen-host interactions” (priority 2012, dated 2017)", "tested_on": "haemagglutinin", "test": "Average Φ and Ψ angles of Neu5Ac-α-(2-3)-Gal from PDB X-ray crystal structures with haemagglutinin", "set-up": "species or system influenza", "settings": "PDB average of 1RVX, 1RV0, 1JSN, 3HTP, 1MQM"}
{"compound": "CC(=O)NC1C(O)CC(OC2C(O)C(O)OC(CO)C2O)(C(=O)O)OC1C(O)C(O)CO", "note": "(stereo not drawn) [Neu5Ac-α-(2-3)-Gal]", "values": [{"measurement": "Phi Φ", "value": 188.06}, {"measurement": "Psi Ψ", "value": 328.38}]}
